Earlier results as cited in article PMC4919188 (Nature, 2016).

System: mouse
Conditions: cited from earlier work

CC(C)C[C@@H]1NC(=O)[C@H](Cc2ccc(O)cc2)NC(=O)[C@H](CCCNC(=N)N)NC(=O)[C@@H](NC(=O)[C@@H](N)CCC(=O)O)CSSC[C@@H]2NC(=O)[C@@H]3CSSC[C@@H](C(=O)N[C@@H](C)C(=O)N[C@@H](Cc4c[nH]c5ccccc45)C(=O)N[C@@H](CC(=O)O)C(=O)NCC(=O)N[C@H](C(=O)N[C@@H](Cc4ccccc4)C(=O)N[C@@H](CO)C(=O)O)[C@@H](C)O)NC(=O)[C@H](Cc4ccc(O)cc4)NC(=O)[C@H](CCCCN)NC(=O)[C@H](Cc4c[nH]c5ccccc45)NC(=O)[C@H](CC(=O)O)NC(=O)[C@H](CO)NC(=O)[C@H](CCCNC(=N)N)NC(=O)[C@H](CSSC[C@H](NC(=O)CNC(=O)CNC(=O)[C@H](Cc4ccccc4)NC1=O)C(=O)N[C@@H](CO)C(=O)N[C@@H](CO)C(=O)N[C@@H]([C@@H](C)O)C(=O)N[C@@H](CO)C(=O)N[C@@H](CC(=O)O)C(=O)N3)NC(=O)[C@H](CO)NC(=O)[C@H](CC(C)C)NC(=O)[C@H](Cc1c[nH]cn1)NC(=O)[C@H](CCCCN)NC2=O [Hm1a]
effect of injection into the mouse brain: convulsions and rapid death
